The record followed here is patent publication US6780633B2, “Methods for producing optically active amino acids” (Sumitomo Chemical Company, Limited, priority 1999, dated 2004).

Format in all cases: cell-based
Data set [1] deals with Nocardia diaphanozonaria strain JCM3208. Kind of data set: conversion of amino acid optical isomers by whole cells (cell suspension). To be noted: for % D-form / % L-form: 30° C.
The test system of data set [2] is Pseudomonas oleovorans strain IFO13583. Briefly: conversion of p-chlorophenylalanine isomers by wet cells. To be noted: 0.1% (w/v) substrate, pH 7.0, 30° C., incubation 48 h.
For data set [3], the system named is Pseudomonas oxalaticus strain IFO13593. Described as above. To be noted: 0.1% (w/v) substrate, pH 7.0, 30° C., incubation 48 h.
For data set [4], the system named is Rhizobium meliloti strain IFO14782. Described as above. To be noted: 0.1% (w/v) substrate, pH 7.0, 30° C., incubation 48 h.
Data set [5] deals with Pseudomonas chlororaphis strain IFO3521. Described as above. To be noted: 0.1% (w/v) substrate, pH 7.0, 30° C., incubation 72 h.
Where [6] appears, read: substrate D-form, incubation 70 h.
The mark [7] stands for this setting: substrate racemic mixture, incubation 72 h.
Setting [8] is: substrate D-form, incubation 48 h.
[9] abbreviates: substrate L-form, incubation 72 h.
[10] abbreviates: substrate racemic mixture, incubation 48 h.
Setting [11] is: substrate L-form, incubation 48 h.
Setting [12] is: substrate D-form, incubation 47 h.

Take `CCC(N)C(=O)O` (racemic) [2-aminobutyric acid]: in data set [1] (setting [6]), the “% D-form” value is given as 38% and the “% L-form” value worked out at 62%. Besides, in data set [1] (setting [7]), the “% D-form” value was found to be 30% and the “% L-form” value was 70%.
Regarding `CCC[C@H](N)C(=O)O` (racemic) [Norvaline], the figures for the “% D-form” value in data set [1] (setting [8]), in data set [1] (setting [9]) and in data set [1] (setting [10]) were 1%, 0% and 4%, respectively. Also, the “% L-form” value came out at 99% in data set [1] (setting [8]), 100% in data set [1] (setting [9]) and 96% in data set [1] (setting [10]).
With `CSCC[C@H](N)C(=O)O` (racemic) [methionine], the results for the “% D-form” value in data set [1] (setting [6]), in data set [1] (setting [11]) and in data set [1] (setting [7]) were 61%, 0% and 31%, respectively. The “% L-form” value in data set [1] (setting [6]) was 39%; in data set [1] (setting [11]) it was 100%; in data set [1] (setting [7]), 69%.
As to `NC(C(=O)O)c1ccccc1` (racemic) [phenylglycine], the figures for the “% D-form” value in data set [1] (setting [6]), in data set [1] (setting [9]) and in data set [1] (setting [10]) were 2%, 0% and 0%, respectively. The figures for the “% L-form” value in data set [1] (setting [6]), in data set [1] (setting [9]) and in data set [1] (setting [10]) were 98%, 100% and 100%, respectively.
Regarding `N[C@H](Cc1ccc(Cl)cc1)C(=O)O` [D-p-chlorophenylalanine], the “% D-form” value stood at 11% in data set [2], 25% in data set [3] and 16% in data set [4]. Also, the “% L-form” value is given as 89% in data set [2], 75% in data set [3] and 94% in data set [5].
Regarding `N[C@@H](Cc1ccc(Cl)cc1)C(=O)O` [L-p-chlorophenylalanine], the “% D-form” value in data set [2], in data set [3] and in data set [4] was 0% in each case. The “% L-form” value in data set [2], in data set [3] and in data set [5] was 100% throughout. Also, the “formation of D-p-chlorophenylalanine (HPLC analysis of products)” value in data set [1] (L-form as substrate, procedure of Example 1, 30° C., 74 hours) is given as “no formation of D-p-chlorophenylalanine”.
As to `CC(C)(C)[C@H](N)C(=O)O` [tert-Leucine], in data set [1] (setting [12]), the “% D-form” value amounted to 93% and the “% L-form” value turned out to be 7%. For the same compound, in data set [1] (setting [9]), the “% D-form” value amounted to 0% and the “% L-form” value is 100%.
Consider `CCC(N)C(=O)O` (stereo not drawn) [α-Aminobutyric acid], for which, in data set [1] (setting [11]), the “% D-form” value amounted to 0% and the “% L-form” value was 100%.
